Results of unrelated studies side by side (data: NIAID ChemDB).

Common to all: whole-cell or culture tests; organism: Hepatitis C virus

ECn is the concentration giving n% inhibition of infection, replication or growth.

CCC[C@@H](NC(=O)[C@@H]1CC2CCCCC2N1C(=O)[C@@H](NC(=O)[C@@H](NC(=O)c1cnccn1)C1CCCCC1)C(C)(C)C)C(=O)C(=O)NC1CC1 ; endpoint: EC50 ; value: 1.1 µM
CN(C)c1cc2c(cc1F)c(=O)c(-c1noc(C(C)(C)c3ccccc3)n1)cn2Cc1ccc(F)cc1 ; strain or isolate: 1b ; endpoint: EC50 ; method: replicon ; value: >10 µM
COc1cccc2c1C=C(C(=O)N1CC3CCC(C1)N3C)Cn1c-2c(C2CCCCC2)c2ccc(C(=O)NS(=O)(=O)N(C)C)cc21 ; endpoint: EC50 ; method: replicon ; value: 0.001–0.5 µM
CCCCCCCC(=O)CCCCCC/C=C/[C@H](C(=O)N[C@@H](Cc1ccc(CNC(=O)OC2c3ccccc3-c3ccccc32)cc1)C(=O)O)[C@@](O)(CC(=O)O)C(=O)O ; cells: Huh7 ; endpoint: EC50 ; method: replicon ; value: 0.008 µM
COc1cccc(N2CCN(CN3C(=O)/C(=N\c4ncc(Cc5cc(OC)c(OC)c(OC)c5)c(N)n4)c4cc(C)ccc43)CC2)c1 ; cells: Huh7 ; endpoint: EC50 ; value: <50 µg/mL
NC(=O)c1ncn(CCC2(O)NC(=O)C(OCc3ccccc3)=C2OCc2ccccc2)c1C(N)=O ; cells: Huh 5-2 ; strain or isolate: 1b ; endpoint: EC90 ; method: luciferase / replicon ; value: >100 µg/mL
COc1nc(N)nc2c1ncn2[C@@H]1O[C@H](COP(=O)(N[C@H](C)C(=O)OCC(C)(C)C)Oc2cccc3ccccc23)[C@@H](O)[C@@]1(C)O ; cells: Huh7 ; strain or isolate: 1b replicon ; endpoint: EC50 ; method: luciferase / replicon ; value: 0.01 µM
CCCCCCCC(=O)CCCCCC/C=C/[C@H](C(=O)N[C@@H](Cc1ccc(Oc2ccccc2F)cc1)C(=O)O)[C@@](O)(CC(=O)O)C(=O)O ; cells: Huh7 ; endpoint: EC50 ; method: replicon ; value: 0.002 µM
CCn1cc(C(=O)O)c(=O)c2c(F)c(N3CCN(CN4C(=O)/C(=N\c5ncc(Cc6cc(OC)c(OC)c(OC)c6)c(N)n5)c5cc(C)ccc54)C(C)C3)c(F)cc21 ; cells: Huh7 ; endpoint: EC50 ; value: <50 µg/mL
CCS(=O)(=O)NC(=O)c1ccc2c(C3CCCCC3)c3n(c2c1)CC(C(=O)N1CCOCC1)Cc1ccccc1-3 ; cells: Huh7 ; endpoint: EC50 ; method: replicon ; value: 0.01–1 µM
CCCCN1N=C(N)c2cn(C3(C)O[C@H](CO)[C@@H](O)[C@H]3O)c3ncnc1c23 ; cells: Huh7 ; endpoint: EC50 ; value: 100 µM
CN1CCN(c2cc3c(cc2F)c(=O)c(-c2noc(C(C)(C)c4ccccc4)n2)cn3Cc2ccc(Cl)nc2)CC1 ; strain or isolate: 1b ; endpoint: EC50 ; method: replicon ; value: >10 µM
COC(=O)c1ccc2c(C3CCCCC3)c3n(c2c1)CC(C(=O)N1CCOCC1)=Cc1ccncc1-3 ; cells: Huh7 ; endpoint: EC50 ; method: replicon ; value: 1–10 µM
COc1ccc2c(c1)C=C(C(=O)N1CC3CCC(C1)N3)Cn1c-2c(C2CCCCC2)c2ccc(C(=O)NS(=O)(=O)N(C)C)cc21 ; endpoint: EC50 ; method: replicon ; value: 0.001–0.5 µM
O=C(/C=C/c1cc(O)c(O)c(O)c1)OCCc1ccccc1 ; cells: Huh7 ; strain or isolate: 2a ; endpoint: EC50 ; method: luciferase ; value: 48.5 µM
COc1cc(Cc2cnc(/N=C3\C(=O)N(CN4CCN(c5ccc([N+](=O)[O-])cc5)CC4)c4ccc(C)cc43)nc2N)cc(OC)c1OC ; cells: Huh7 ; endpoint: EC50 ; value: <50 µg/mL
C#CCOc1ccc(C[C@H](NC(=O)[C@@H](/C=C/CCCCCCC(=O)CCCCCCC)[C@@](O)(CC(=O)O)C(=O)O)C(=O)O)cc1 ; cells: Huh7 ; endpoint: EC50 ; method: replicon ; value: 0.001 µM
O=C(Nc1ccccc1)c1cc(-n2cccc2)n(-c2ccc(Cl)cc2)n1 ; cells: Huh 5-2 ; strain or isolate: Con1 (gt 1b) ; endpoint: EC90 ; method: luciferase / replicon ; value: >206.7 µM
COc1cc(Cc2cnc(/N=C3\C(=O)N(CN4CCN(c5ccc(Cl)cc5)CC4)c4ccc(C)cc43)nc2N)cc(OC)c1OC ; cells: Huh7 ; endpoint: EC50 ; value: <50 µg/mL
CN(C)C(=O)C1=Cc2ccccc2-c2c(C3CCCCC3)c3ccc(C(=O)NS(=O)(=O)N(C)C)cc3n2C1 ; cells: Huh7 ; endpoint: EC50 ; method: replicon ; value: 0.01–1 µM
N#Cc1c(C(=O)Nc2ccccc2)nn(-c2ccc(Cl)cc2)c1-n1cccc1 ; cells: Huh 5-2 ; strain or isolate: Con1 (gt 1b) ; endpoint: EC50 ; method: luciferase / replicon ; value: 26.2 µM
Nc1ccn([C@@H]2O[C@H](CO)[C@@H](O)[C@H]2F)c(=O)n1 ; cells: Huh7 ; endpoint: EC90 ; method: replicon ; value: 5.6 µM
CNc1cc2c(cc1F)c(=O)c(-c1noc(Cc3ccccc3)n1)cn2Cc1ccc(C(F)(F)F)cc1F ; strain or isolate: 1b ; endpoint: EC50 ; method: replicon ; value: <2 µM
COc1cccc2c1C=C(C(=O)N1CC3CCC(C1)N3C(=O)OC(C)(C)C)Cn1c-2c(C2CCCCC2)c2ccc(C(=O)NS(=O)(=O)N(C)C)cc21 ; endpoint: EC50 ; method: replicon ; value: 0.001–0.5 µM
CCCC(NC(=O)[C@@H]1C[C@@H](OC(=O)N2CCc3ccccc3C2)CN1C(=O)[C@H](NC(=O)[C@H](NC(=O)c1cnccn1)C(C)C)C(C)C)C(=O)C(=O)N1CCC1 ; cells: Huh7 ; endpoint: EC50 ; value: 10.3 µM
CC(C)(C)NC(=O)N[C@H](C(=O)N1C[C@H]2[C@@H]([C@H]1C(=O)NC(CC1CCC1)C(=O)C(N)=O)C2(C)C)C(C)(C)C ; cells: Huh7 ; strain or isolate: 1b ; endpoint: EC50 ; value: 1.1 µM
COC(=O)N[C@H](C(=O)N1CCC[C@H]1c1ncc(-c2ccc(-c3ccc(-c4cnc([C@@H]5CCCN5C(=O)[C@@H](NC(=O)OC)C(C)C)[nH]4)cc3)cc2)[nH]1)C(C)C ; strain or isolate: Con1 ; endpoint: EC50 ; method: replicon ; value: 0.000006 µM
CC1(C)CC(=O)C2=C(C1)Nc1c(O)cccc1N(C(=O)NCC(=O)NS(C)(=O)=O)C2c1ccc(OCc2ccccc2)cc1Cl ; strain or isolate: 1b ; endpoint: EC50 ; method: luciferase / reporter gene / replicon ; value: >32 µM
CNC(=O)C1Cc2ccccc2-c2c(C3CCCCC3)c3ccc(C(=O)NC4(CNc5ccc(/C=C/C(=O)O)cc5)CCCC4)cc3n2C1 ; cells: Huh7 ; endpoint: EC50 ; method: replicon ; value: 0.01–1 µM
N#Cc1c(C(=O)Nc2ccc(Cl)cc2)nn(-c2ccc(Cl)cc2)c1-n1cccc1 ; cells: Huh 5-2 ; strain or isolate: Con1 (gt 1b) ; endpoint: EC50 ; method: luciferase / replicon ; value: 5.5 µM
CN(C)CCCN(C)C(=O)CCC(=O)N1c2cccc(O)c2NC2=C(C(=O)CC(C)(C)C2)C1c1ccc(OCc2ccccc2)cc1Cl ; strain or isolate: 1b ; endpoint: EC50 ; method: luciferase / reporter gene / replicon ; value: 67.1 µM
CCCC(NC(=O)[C@@H]1C[C@@H](OC(=O)N2CCc3ccccc3C2)CN1C(=O)[C@H](NC(=O)[C@H](NC(=O)c1cnccn1)C(C)C)C(C)C)C(=O)C(=O)N[C@@H](C)c1ccccc1 ; cells: Huh7 ; endpoint: EC50 ; value: 0.31 µM
O=c1nc(NO)ccn1[C@@H]1O[C@H](CO)[C@@H](O)[C@H]1F ; cells: Huh7 ; endpoint: EC90 ; method: replicon ; value: >100 µM
COc1cccc2c1C=C(C(=O)N1C3CCC1CN(C)C3)Cn1c-2c(C2CCCCC2)c2ccc(C(=O)NS(=O)(=O)N(C)C)cc21 ; endpoint: EC50 ; method: replicon ; value: 0.001–0.5 µM
Cc1c(C(=O)Nc2ccccc2)nn(-c2ccc(Cl)cc2)c1-n1cccc1 ; cells: Huh 5-2 ; strain or isolate: Con1 (gt 1b) ; endpoint: EC50 ; method: luciferase / replicon ; value: 16.7 µM
CCCCCCCC(=O)CCCCCC/C=C/[C@H](C(=O)N[C@@H](Cc1ccc(-c2cccc(OC)c2)cc1)C(=O)O)[C@@](O)(CC(=O)O)C(=O)O ; cells: Huh7 ; endpoint: EC50 ; method: replicon ; value: 0.004 µM
CN(C)S(=O)(=O)NC(=O)c1ccc2c(C3CCCCC3)c3n(c2c1)CC(C(=O)N1CCNCC1)=Cc1ccccc1-3 ; cells: Huh7 ; endpoint: EC50 ; method: replicon ; value: 0.01–1 µM
CN(CC(N)=O)c1cc2c(cc1F)c(=O)c(-c1noc(Cc3ccccc3)n1)cn2Cc1ccc(C(F)(F)F)cc1 ; strain or isolate: 1b ; endpoint: EC50 ; method: replicon ; value: <0.5 µM
NC(=O)COc1ccc2c(c1)S(=O)(=O)N=C(c1c(O)c3cc(F)ccc3n(CCC3CC3)c1=O)N2 ; strain or isolate: 1b 45969 ; endpoint: EC50 ; method: replicon ; value: 0.18 µM
COc1cc(Cc2cnc(/N=C3\C(=O)N(CN4CCCC4)c4ccc(C)cc43)nc2N)cc(OC)c1OC ; cells: Huh7 ; endpoint: EC50 ; value: <50 µg/mL
COc1ccc2ccccc2c1C1Nc2cccc(O)c2NC2=C1C(=O)CC(C)(C)C2 ; strain or isolate: 1b ; endpoint: EC50 ; method: luciferase / reporter gene / replicon ; value: >32 µM
COc1ccc2c(c1)C=C(C(=O)N1C3CCC1CN(C1CC1)C3)Cn1c-2c(C2CCCCC2)c2ccc(C(=O)NS(=O)(=O)N(C)C)cc21 ; endpoint: EC50 ; method: replicon ; value: 0.001–0.5 µM
CCCN1N=C(N)c2cn(C3(C)O[C@H](CO)[C@@H](O)[C@H]3O)c3ncnc1c23 ; cells: Huh7 ; endpoint: EC50 ; value: 100 µM
CCCCCCCC(=O)CCCCCC/C=C/[C@H](C(=O)N[C@@H](Cc1ccc(OCC#CCC#CC(C)(C)C)cc1)C(=O)O)[C@@](O)(CC(=O)O)C(=O)O ; cells: Huh7 ; endpoint: EC50 ; method: replicon ; value: 0.006 µM
CCCCCCOC(=O)/C=C/c1ccc(O)c(O)c1 ; cells: Huh7 ; strain or isolate: 2a ; endpoint: EC50 ; method: luciferase ; value: 7.3 µM
O=C(N[C@@H](C(=O)N1CCC[C@H]1c1ncc(-c2ccc(-c3ccc(-c4cnc([C@@H]5CCCN5C(=O)[C@H](NC(=O)C5CC5)c5ccccc5)s4)cc3)cc2)s1)c1ccccc1)C1CC1 ; cells: Huh7.5 ; strain or isolate: genotype 1b ; endpoint: EC50 ; method: luciferase / reporter gene ; mutations: Y93H+V153M+M202L+M265V ; value: 0.008736 µM
O=C(O)c1ccc2c(C3CCCCC3)c3n(c2c1)CC(N1CCOCC1)Cc1cccnc1-3 ; cells: Huh7 ; endpoint: EC50 ; method: replicon ; value: 0.01–1 µM
CC1(C)CC(=O)C2=C(C1)Nc1c(O)cccc1N(C(=O)c1ccc(C#N)o1)C2c1ccc(OCc2ccccc2)cc1F ; strain or isolate: 1b ; endpoint: EC50 ; method: luciferase / reporter gene / replicon ; value: 3.36 µM
Cc1cn([C@@H]2CP(=O)(OC(C)C)[C@@H](CO)O2)c(=O)[nH]c1=O ; cells: Huh7 ; strain or isolate: ZS11 (gt 1b) ; endpoint: EC50 ; method: luciferase / replicon ; value: >10 µM
COc1ccc2ccccc2c1C1C2=C(CC(C)(C)CC2=O)Nc2c(O)cccc2N1C(=O)C(C)C ; strain or isolate: 1b ; endpoint: EC50 ; method: luciferase / reporter gene / replicon ; value: 6.49 µM
COc1cc(Cc2cnc(/N=C3\C(=O)N(CN4CCN(c5ccc6c(c5F)c(=O)c(C(=O)O)cn6C5CC5)CC4)c4ccc(C)cc43)nc2N)cc(OC)c1OC ; cells: Huh7 ; endpoint: EC50 ; value: <50 µg/mL
C[C@@H](NC(=O)Cc1ccccc1)C(=O)Nc1ccc(C2SC(=Nc3cccc(F)c3)N(Cc3ccco3)C2=O)cc1 ; endpoint: EC50 ; value: 0.008 µM
O=c1ccoc2cc(-c3ccccc3)c(OCc3cccc(Cl)c3)c(O)c12 ; cells: Huh 5-2 ; strain or isolate: genotype 1 ; endpoint: EC50 ; method: luciferase ; value: 22 µM
CN(C)S(=O)(=O)NC(=O)c1ccc2c(C3CCCCC3)c3n(c2c1)CC(C(=O)N1CCCOCC1)=Cc1ccccc1-3 ; cells: Huh7 ; endpoint: EC50 ; method: replicon ; value: 0.01–1 µM
COc1ccc2c(c1)C=C(C(=O)N1C3CCC1CN(C)C3)Cn1c-2c(C2CCCCC2)c2ccc(C(=O)NS(=O)(=O)C(C)C)cc21 ; endpoint: EC50 ; method: replicon ; value: 0.001–0.5 µM
CN1CCN(c2cc3c(cc2F)c(=O)c(-c2noc(CC4CCCC4)n2)cn3Cc2ccc(C(F)(F)F)cc2F)CC1 ; strain or isolate: 1b ; endpoint: EC50 ; method: replicon ; value: <10 µM
CC(C)(C)OC(=O)N1C/C=C\Cn2c(c(C3CCCCC3)c3ccc(C(=O)O)cc32)-c2ccccc21 ; cells: Huh7 ; endpoint: EC50 ; method: replicon ; value: >10 µM
N#Cc1cccc(COc2c(-c3ccccc3)cc3occc(=O)c3c2O)c1 ; cells: Huh 5-2 ; strain or isolate: genotype 1 ; endpoint: EC50 ; method: luciferase ; value: 20 µM

5 of the rows above, restated:

SMILES,cells,strain or isolate,endpoint,method,mutations,value
COC(=O)c1ccc2c(C3CCCCC3)c3n(c2c1)CC(C(=O)N1CCOCC1)=Cc1ccncc1-3,Huh7,,EC50,replicon,,1–10 µM
COc1ccc2c(c1)C=C(C(=O)N1CC3CCC(C1)N3)Cn1c-2c(C2CCCCC2)c2ccc(C(=O)NS(=O)(=O)N(C)C)cc21,,,EC50,replicon,,0.001–0.5 µM
CCCCCCCC(=O)CCCCCC/C=C/[C@H](C(=O)N[C@@H](Cc1ccc(Oc2ccccc2F)cc1)C(=O)O)[C@@](O)(CC(=O)O)C(=O)O,Huh7,,EC50,replicon,,0.002 µM
CNc1cc2c(cc1F)c(=O)c(-c1noc(Cc3ccccc3)n1)cn2Cc1ccc(C(F)(F)F)cc1F,,1b,EC50,replicon,,<2 µM
CN(CC(N)=O)c1cc2c(cc1F)c(=O)c(-c1noc(Cc3ccccc3)n1)cn2Cc1ccc(C(F)(F)F)cc1,,1b,EC50,replicon,,<0.5 µM

Two numbers with a dash give a range or band. Rows are shuffled and stem from different studies. An empty or dashed field is not shown.